According to ChEMBL document CHEMBL3124921, “Discovery of nitropyridine derivatives as potent HIV-1 non-nucleoside reverse transcriptase inhibitors via a structure-based core refining approach” (Eur J Med Chem, 2014):

Target: Human immunodeficiency virus type 1 reverse transcriptase (Human immunodeficiency virus 1, UniProt Q72547)
Test: Inhibition of wild type HIV-1 reverse transcriptase using […] as template/primer assessed as inhibition of biotin-dUTP incorporation after 1 hr by microtiter plate ELISA reader analysis

SMILES: Cc1cc(C#N)cc(C)c1Oc1nc(Nc2ccc(C#N)cc2)nc(N)c1Br [ETRAVIRINE]
- IC50: 6.5 µM
